This is a selection; strong and weak results do not stand in their true shares. Calls of active or inactive are those of the source. How the calls were made is not given here.
Target: Chaperone protein DnaK (Escherichia coli (strain K12)) (UniProt P0A6Y8)
Assay: E. coli DnaK chaperone inhibitors, primary screen, luminescence, E. coli K12 (AID 547);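 further: tested at 10 µM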
Conditions: DnaK chaperone assay, luminescence read-out; active compounds read low

| SMILES | luminescence |
| --- | --- |
| N#[O+].[C-]#N.[C-]#N.[C-]#N.[C-]#N.[C-]#N.[Fe+2].[Na+].[Na+] | inactive: 2.7e+06 cps |

From PubChem BioAssay AID547 (Emory University Molecular Libraries Screening Center, 2006)
